Test system: OGD/R-treated HT22 cells
Conditions: 1–10 μM pretreatment 4 h

Structure (SMILES): Cn1cc(-c2cnc(N)n3nc(-c4ccco4)nc23)ccc1=O [1a]
- inflammation modulators iNOS, COX-2 and VCAM-1 (western blot): significantly inhibited

From article PMC8919384 (ACS Medicinal Chemistry Letters, 2022)
